Common to all, as to type: biochemical
One experiment has as its target ACT (Enzo) (Bordetella pertussis, UniProt P0DKX7).
Another experiment has as its target edema factor (EF) (Bacillus anthracis, UniProt P40136). As to conditions: read-out: IC50 EF.
The target in the next experiment is ACT (Sigma) (Bordetella pertussis, UniProt P0DKX7). The settings on record: read-out: IC50 ACT Sigma.
Setting [1] is: read-out: IC50 values, range over all enzymes tested.

Where two headings read alike, the source gives them in different places.

As a reminder, the IC50 is the midpoint of a concentration-inhibition curve. With “(7-Deazaadenine-9-yl)ethoxy)methyl)phosphonic acid diphosphate [Compound 40a]”, the IC50 at ACT (Enzo) (read-out: IC50 ACT Enzo) was 4.08 ± 0.75 nM; at ACT (Enzo) (setting [1]) it was 0.5 to 21 nM; at edema factor (EF), 2.54 ± 0.65 nM; at ACT (Sigma) it was 0.51 ± 0.12 nM.
The matching figures for “(8-Aza-7-deazaadenine-9-yl)ethoxy)methyl)phosphonic acid diphosphate [Compound 40b]”: 20.8 ± 0.1 nM, 0.5 to 21 nM, 5.28 ± 1.33 nM and 12.7 ± 0.3 nM.

The values above are taken from article PMC6415679 (ChemMedChem, 2018).
